Measured values from several laboratories, pooled; numbers as filed in NIAID ChemDB.

All rows: whole-cell or culture tests; species: Mycobacterium bovis BCG; endpoint: MIC

An empty or dashed field is not shown.

structure	strain or isolate	changes	method	setting	value
O=C(NCCNC(=O)c1ccc2c(c1)B(O)OC2)c1ccc2c(c1)B(O)OC2	-	-	visual reading / absorbance	-	780 µM
CCCCCCCCCCCCCCCCC#CC(=O)O	Pasteur	-	-	-	10.6 µM
COc1cc(C(=O)O[C@H]2C=C(C)C(=O)C[C@@]3(C)CC[C@@](O)(C(C)C)C23)ccc1O	Pasteur	-	-	-	>50 µg/mL
COc1ccc(/C(C)=N/NC(N)=S)cc1	Carrying pMV261-ethA	-	-	-	0.25 µg/mL
Cc1c(CN2CCN(C)CC2)cc(-c2ccc(Cl)cc2)n1-c1ccc(Cl)cc1	M8	L320P S258G	-	-	15 µM
C[C@H]1COC2(CCN(c3nc(=O)c4cc(C(F)(F)F)cc([N+](=O)[O-])c4s3)CC2)O1	recG	-	fluorescence	-	0.009 µM
CCCCCCCCCCCCSCC#CC(=O)O	Pasteur	-	-	-	1.1 µM
CCc1ccc(-c2cc(CN3CCOCC3)c(C)n2-c2ccc(F)cc2)cc1	WILD TYPE	-	-	-	0.04 µM
CCSCCCCCCCCCCCCC#CC(=O)O	Pasteur	-	-	-	434.9 µM
O=C(C1CCN(c2nnc(-n3cccc3)s2)CC1)N1CCC(Cc2ccccc2)CC1	recG	DprE1 mutant (G248S)	fluorescence	-	6.25 µM
CCCCCCCCCCCCCCCC#CC(=O)Oc1nccnc1C(=O)OCCC	Pasteur	-	-	-	6 µM
CC(C)[C@]1(O)CC[C@]2(C)C[C@@H]3O[C@]3(C)C[C@H](OC(=O)c3ccccc3)C21	Pasteur	-	-	-	50 µg/mL
Nc1ccc(C(=O)O)c(O)c1	-	-	fluorescence	-	0.5 µM
CC(=O)Nc1ccc(/C=N/NC(N)=S)cc1	NCTC 5692 ethR::hyg	-	-	-	0.25 µg/mL
CCCCCCCCCCCCCCCCCC#CC(=O)O	Pasteur	-	-	-	40.5 µM
CC(=O)Nc1ccc(/C=N/n2cn[nH]c2=S)cc1	-	-	broth dilution / resazurin	48 h	125 µg/mL
C[C@@H]1CN(c2c(F)c(N)c3c(=O)c(C(=O)O)cn(C4CC4)c3c2F)C[C@H](C)N1	Pasteur	-	broth dilution / visual reading	-	0.1 µg/mL
COc1cc(C(=O)O[C@H]2CC(C)(C)C=C[C@@]3(C)CC[C@@](C)(C(C)C)C23)ccc1O	Pasteur	-	-	-	>50 µg/mL
CNO	-	-	visual reading	-	1.9 µg/mL
CCCCCCCCCCCCCCCC#CC(=O)OCC(O)CO	Pasteur	-	-	-	0.9 µM
CC(C)(C)c1ccccc1OCCCON1C(N)=NC(N)=NC1(C)C	-	Thymidylate synthase (thyA) overexpressing	fluorescence	-	3.6 µM
CC1=C[C@H](OC(=O)c2ccc(O)cc2)C2[C@](C)(CC[C@@]2(O)C(C)C)CC1=O	Pasteur	-	-	-	50 µg/mL
CNC(C)C1CC[C@@H](N)[C@@H](O[C@H]2[C@H](O)[C@@H](OC3OC[C@](C)(O)[C@H](NC)[C@H]3O)[C@H](N)C[C@@H]2N)O1	-	-	resazurin	-	16 µM
CCCCCCCCCCCCCC#CC(=O)OCC(O)CO	Pasteur	-	-	-	1.9 µM

A second listing of 2 rows from above:

structure	strain or isolate	changes	method	setting	value
CCCCCCCCCCCCCCCCCC#CC(=O)O	Pasteur	-	-	-	40.5 µM
CCCCCCCCCCCCSCC#CC(=O)O	Pasteur	-	-	-	1.1 µM

Lines come from different laboratories, so protocols vary.